Results of unrelated studies side by side (data: NIAID ChemDB).

Shared fields: cytotoxicity tests; cells: VERO; read-out: CC50

CCn is the concentration with n% toxicity to the cells. An empty or dashed field is not shown. Rows are shuffled and stem from different studies.

smiles	read by	result
CC(=O)NC1N=C(c2ccccc2)c2cc(Cl)ccc2NC1=O		5 µM
O=C(OCc1ccccc1)c1coc(-c2ccccc2)n1	MTS / absorbance	121 µM
Clc1ncnc2c1ncn2C1C[C@@H]2C[NH2+][C@H]1C2.O=C([O-])C(F)(F)F	MTS	17 µM
Cc1cccc(C)c1Nc1nc(-c2ccccn2)cs1	luminescence	7 µM
Nc1ncnc2c1[nH]c[n+]2C1C[C@H]2C[C@@H]1C[NH2+]2.O=C([O-])C(F)(F)F.O=C([O-])C(F)(F)F	MTS	>109 µM
CS(=O)(=O)NC1N=C(c2ccccc2)c2ccccc2NC1=O		6 µM
Cc1c(N)nc([C@H](CC(N)=O)NC[C@@H](N)C(N)=O)nc1C(=O)N[C@H](C(=O)NC(C)C(O)CC(=O)NC(C(=O)NC(OC1OC(C)C(N)C(O)C1O)C(O)c1nc(-c2nc(C(=O)NCCCCN)cs2)cs1)[C@H](C)O)C(OC1OC(CO)C(O)C(O)C1OC1OC(CO)C(O)C(OC(N)=O)C1O)c1cnc[nH]1.Cl.Cl.Cl.Cl		8.7 µg/mL
O=C(NC(=O)N1CCOCC1)C1N=C(c2ccccc2)c2ccccc2NC1=O		5 µM
CCN(CC)CC(O)CNc1ccc(C)c2sc3ccccc3c(=O)c12		7 µg/mL
CCCCCC(=O)N1C[C@H]2C[C@@H]1CC2n1cnc2c(Cl)ncnc21	MTS	86 µM
O=C1C=CN([C@@H]2O[C@H](CO)[C@@H](O)[C@H]2O)C(=O)C1	neutral red	320 µg/mL
CC(C)(C)OC(=O)N1C[C@H]2C[C@@H]1CC2n1cnc2c(Cl)ncnc21	MTS	50 µM
C=C(C)[C@@H]1CC[C@]2(C)CCC3(C)[C@H](CC[C@@H]4[C@@]5(C)CC[C@H](O)C(C)(C)[C@@H]5CC[C@]43C)[C@@H]12		33 µg/mL
N#Cc1c(Br)n([C@@H]2O[C@H](CO)[C@@H](O)[C@H]2O)c2ncnc(N)c12	neutral red	10.6 µg/mL
Nc1ccc2nc3ccc(N)cc3[n+](-c3ccccc3)c2c1		25.11 µg/mL
O=c1cnn([C@@H]2O[C@H](CO)[C@@H](O)[C@H]2O)c(=O)[nH]1	neutral red	157 µg/mL
CC(C)(C)c1ccc(C(=O)Nc2nccc(-c3ccccn3)n2)cc1	luminescence	14 µM
CO[C@@]12[C@H](COC(C)=O)C3=C(C(=O)C(C)=C(N4CCCCC4)C3=O)N1C[C@@H]1N[C@@H]12		0.44 µg/mL
CS(=O)(=O)NC1N=C(c2ccccc2)c2cc(Cl)ccc2NC1=O		5 µM
O=C[C@@H](CO)O[C@H](C=O)n1ccc(=O)[nH]c1=O	neutral red	210 µg/mL
NC(Cc1c[nH]c2ccccc12)C(=O)NC(Cc1c[nH]c2ccccc12)C(=O)NC(Cc1c[nH]c2ccccc12)C(=O)O		22.02 µg/mL
O=C(Nc1nc(-c2ccccn2)cs1)c1cc([N+](=O)[O-])cc([N+](=O)[O-])c1	luminescence	54 µM
C=C(C)C1CC=C(C)/C(=N/NC(=O)c2cccnc2)C1		113 µg/mL
CC(C)(C)OC(=O)N1[C@H]2CC[C@@H]1C(n1cnc3c(Cl)ncnc31)C2	MTS	85 µM
Nc1cc2nc3ccccc3sc-2cc1=O		1.7 µg/mL
O=C([O-])C(F)(F)F.O=C([O-])C(F)(F)F.c1nc([NH2+]C2CC2)c2ncn(C3C[C@H]4CC[C@@H]3[NH2+]4)c2n1	MTS	>100 µM
CC(C)N=c1cc2n(-c3ccc(Cl)cc3)c3ccccc3nc-2cc1Nc1ccc(Cl)cc1		13.8 µg/mL
O=C(Nc1nc(-c2ccccn2)cs1)c1ccccc1O	luminescence	11 µM